{
  "source": "patent US6426075",
  "key": {"[1]": {"system": "uPA-cleavable immunotoxin variant with tryptophan restored at the P'2 position"}},
  "data": [
    {"substance": "chymotrypsin", "values": [
      {"measurement": "cleavage by chymotrypsin, reducing and non-reducing SDS-PAGE", "setting": "HB21dsFvPE40(sem2)", "value": "the sem1 and 2 immunotoxins were cleaved by these proteases"},
      {"measurement": "cleavage by chymotrypsin, reducing and non-reducing SDS-PAGE", "setting": "HB21dsFvPE40(sem1)", "value": "the sem1 and 2 immunotoxins were cleaved by these proteases"}
    ]},
    {"substance": "prostate specific antigen", "values": [
      {"measurement": "cleavage by PSA, SDS-PAGE (1:10 enzyme:substrate, 6 h, 37 C, pH 7.0)", "setting": "HB21dsFvPE40(sem1)", "value": "only ˜20% of HB21dsFvPE40(sem1 ) was cleaved"}
    ]},
    {"substance": "trypsin", "values": [
      {"measurement": "cleavage by trypsin, reducing and non-reducing SDS-PAGE", "setting": "HB21dsFvPE40(sem2)", "value": "the sem1 and 2 immunotoxins were cleaved by these proteases"},
      {"measurement": "cleavage by trypsin, reducing and non-reducing SDS-PAGE", "setting": "HB21dsFvPE40(sem1)", "value": "the sem1 and 2 immunotoxins were cleaved by these proteases"}
    ]},
    {"substance": "urokinase", "values": [
      {"measurement": "cleavage by urokinase, reducing and non-reducing SDS-PAGE", "setting": "HB21dsFvPE40(sem2)", "value": "the sem1 and 2 immunotoxins were cleaved by these proteases"},
      {"measurement": "cleavage by uPA", "setting": "[1]", "value": "This mutation retained the distinction of being cleaved by uPA and not by furin"},
      {"measurement": "cleavage by urokinase, reducing and non-reducing SDS-PAGE", "setting": "HB21dsFvPE40(sem1)", "value": "the sem1 and 2 immunotoxins were cleaved by these proteases"}
    ]}
  ]
}
